Source: PubChem BioAssay AID624099 (ICCB-Longwood, 2012)
Aim: 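Knock-downs relieving repression by E2 of an HPV18 LCR luciferase reporter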 (primary screen). Cell system: human C33A cervical carcinoma cells (HPV-negative) stably expressing BPV1 E2 and an HPV18 LCR luciferase reporter. Knock-down reagent: siRNA pool against human genes, 40 nM. Duration: 72 h. Measurement: 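Per-well luciferase luminescence, z-scored on each plate against the plate mean and SD with control wells left out, then averaged across three replicate plates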. Reading the numbers: mean z-score and z-score: higher = stronger reporter signal, weaker E2 silencing. Rule for the call: 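Hit if mean z-score reaches 2 and two or more of three replicate z-scores also reach 2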.
Shown is a random part of about 21,000 deposited reagents. 497 of all reagents (2.4%) count as active. 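Higher z means weaker E2 silencing; only reporter increases were scored, and knock-downs that hurt cell survival may mask genuine repressor factors.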

RSRP1
- mean z-score: 1.11
- z-score, replicate A: 1.12
- z-score, replicate B: 1.1
- z-score, replicate C: 1.12
- Call: inactive

PRSS33
- mean z-score: -0.04
- z-score, replicate A: -0.23
- z-score, replicate B: 0.06
- z-score, replicate C: 0.03
- Call: inactive

EPOR
- mean z-score: 0.72
- z-score, replicate A: 0.54
- z-score, replicate B: 0.67
- z-score, replicate C: 0.95
- Call: inactive

OGFOD1
- mean z-score: 1.53
- z-score, replicate A: 1.18
- z-score, replicate B: 1.74
- z-score, replicate C: 1.68
- Call: inactive

CFAP126
- mean z-score: 0.3
- z-score, replicate A: 0.42
- z-score, replicate B: -0.02
- z-score, replicate C: 0.49
- Call: inactive

TRIM11
- mean z-score: -0.95
- z-score, replicate A: -1.02
- z-score, replicate B: -0.96
- z-score, replicate C: -0.87
- Call: inactive

ZNF71
- mean z-score: -0.75
- z-score, replicate A: -0.29
- z-score, replicate B: -0.42
- z-score, replicate C: -1.54
- Call: inactive

USP47
- mean z-score: -0.4
- z-score, replicate A: -0.56
- z-score, replicate B: -0.4
- z-score, replicate C: -0.25
- Call: inactive

TBC1D32
- mean z-score: -0.42
- z-score, replicate A: 0.04
- z-score, replicate B: -0.44
- z-score, replicate C: -0.86
- Call: inactive

SLC36A1
- mean z-score: 1.56
- z-score, replicate A: 1.25
- z-score, replicate B: 1.87
- z-score, replicate C: 2.51
- Call: inactive

LOC388220 (retired record)
- mean z-score: -1.92
- z-score, replicate A: -1.76
- z-score, replicate B: -2.15
- z-score, replicate C: -1.83
- Call: inactive

DENR
- mean z-score: 0.04
- z-score, replicate A: 0.29
- z-score, replicate B: 0.01
- z-score, replicate C: -0.18
- Call: inactive

LOC388139 (retired record)
- mean z-score: 0.23
- z-score, replicate A: -0.04
- z-score, replicate B: 0.41
- z-score, replicate C: 0.33
- Call: inactive

DYNC2LI1
- mean z-score: 0.88
- z-score, replicate A: 0.65
- z-score, replicate B: 1.12
- z-score, replicate C: 0.88
- Call: inactive

DDAH2
- mean z-score: 0.47
- z-score, replicate A: 0.15
- z-score, replicate B: 0.63
- z-score, replicate C: 0.62
- Call: inactive

KRTAP9-4
- mean z-score: -0.73
- z-score, replicate A: -0.37
- z-score, replicate B: -0.96
- z-score, replicate C: -0.86
- Call: inactive

Sorted by “mean z-score” (high to low): 2 of the entries above.
OGFOD1
- mean z-score: 1.53
- z-score, replicate A: 1.18
- z-score, replicate B: 1.74
- z-score, replicate C: 1.68
- Call: inactive

CFAP126
- mean z-score: 0.3
- z-score, replicate A: 0.42
- z-score, replicate B: -0.02
- z-score, replicate C: 0.49
- Call: inactive

Continued:
CNFN
- mean z-score: -0.56
- z-score, replicate A: -0.65
- z-score, replicate B: -0.57
- z-score, replicate C: -0.46
- Call: inactive

DHX57
- mean z-score: 0.43
- z-score, replicate A: 0.54
- z-score, replicate B: 0.27
- z-score, replicate C: 0.49
- Call: inactive

ZNF788P
- mean z-score: 0.58
- z-score, replicate A: 0.65
- z-score, replicate B: 0.35
- z-score, replicate C: 0.74
- Call: inactive

MAGEA6
- mean z-score: 0.93
- z-score, replicate A: 1.09
- z-score, replicate B: 0.86
- z-score, replicate C: 0.85
- Call: inactive

LCORL
- mean z-score: -0.95
- z-score, replicate A: -0.89
- z-score, replicate B: -0.98
- z-score, replicate C: -0.97
- Call: inactive

SPECC1
- mean z-score: -0.21
- z-score, replicate A: -0.21
- z-score, replicate B: -0.04
- z-score, replicate C: -0.39
- Call: inactive

SPOCK2
- mean z-score: 1.03
- z-score, replicate A: 1.04
- z-score, replicate B: 1.08
- z-score, replicate C: 0.98
- Call: inactive

NEXN-AS1
- mean z-score: 0.46
- z-score, replicate A: 0.36
- z-score, replicate B: 0.61
- z-score, replicate C: 0.42
- Call: inactive

NDUFAF1
- mean z-score: 0.04
- z-score, replicate A: 0.15
- z-score, replicate B: 0.03
- z-score, replicate C: -0.07
- Call: inactive

LINC00663
- mean z-score: 0.93
- z-score, replicate A: 0.62
- z-score, replicate B: 1.38
- z-score, replicate C: 0.78
- Call: inactive

MMP7
- mean z-score: 0.89
- z-score, replicate A: 0.95
- z-score, replicate B: 0.64
- z-score, replicate C: 1.06
- Call: inactive
